Measured values from several laboratories, pooled; numbers as filed in NIAID ChemDB.

All rows: tests on isolated targets; species: HIV-1; target: Reverse transcriptase; measure: IC50

Blank or dashed fields: not listed here.

{"structure": "CN(C)c1ccc(CC(=O)Nc2ccc(NC(=O)CSc3nnnn3-c3ccc(C(C)(C)C)cc3Cl)c(Cl)c2)cc1", "strain or isolate": "WT", "method": "PicoGreen / fluorescence", "value": "<1 µM"}
{"structure": "Cc1nnc2c3ccccc3c(N3CCc4c(F)cccc4C3)nn12", "strain or isolate": "KER2008", "method": "RT activity / fluorescence", "value": "2.51 µM"}
{"structure": "CN1CCN(CCOC(C)(C)C#Cc2ccc(NC(=O)CSc3nnnn3-c3ccc(C4CC4)cc3Cl)c(Cl)c2)CC1", "strain or isolate": "WT", "method": "PicoGreen / fluorescence", "value": "<1 µM"}
{"structure": "Cc1c(C(=O)N2CCN(c3ncccc3NC(C)C)CC2)[nH]c2ccccc12", "method": "nucleotide incorporation", "value": "<100 µM"}
{"structure": "O=C(CSc1nnnn1-c1ccc(C(F)(F)F)cc1Cl)Nc1ccc(-c2ccc(OCCN3CCCCC3)cc2)cc1Cl", "mutations": "RT-K103 Y181C", "method": "PicoGreen / fluorescence", "value": "<1 µM"}
{"structure": "CCOC(=O)c1csc(-c2ccc(OCCc3cnc4c(c3)C(=O)N(C)c3cccnc3N4CC)c(C)c2)n1", "strain or isolate": "IIIB", "mutations": "RT-K103N Y181C", "method": "nucleotide incorporation / radiometric", "value": ">0.1 µM"}
{"structure": "CC(C)Nc1cccnc1N(C)CCN(C)C(=O)c1cc2ccccc2[nH]1", "method": "nucleotide incorporation", "value": "<100 µM"}
{"structure": "CN(C)CCNC(=O)COC(C)(C)C#Cc1ccc(NC(=O)CSc2nnnn2-c2ccc(C(C)(C)C)cc2Cl)c(Cl)c1", "mutations": "RT-K103 Y181C", "method": "PicoGreen / fluorescence", "value": "<1 µM"}
{"structure": "CCN1c2ncc(CCOc3ccc(-c4nc(C(=O)O)cs4)cc3)cc2C(=O)N(C)c2cccnc21", "strain or isolate": "IIIB", "mutations": "RT-K103N Y181C", "method": "nucleotide incorporation / radiometric", "value": ">0.1 µM"}
{"structure": "FC(F)(F)c1cccc2c1CCN(c1nn3c(C4CC4)nnc3c3ccccc13)C2", "strain or isolate": "98US_MSC5016", "method": "RT activity / fluorescence", "value": "22.4 µM"}
{"structure": "CCNc1cccnc1N1CCCN(C(=O)c2cc3ccccc3[nH]2)CC1", "method": "nucleotide incorporation", "value": "<100 µM"}
{"structure": "c1ccc2c(c1)CCN(c1nn3c(-c4cscn4)nnc3c3ccccc13)C2", "strain or isolate": "KER2008", "method": "RT activity / fluorescence", "value": "1.39 µM"}
{"structure": "CCNc1cccnc1N1CCN(C(=O)c2cc3ccccc3o2)CC1", "method": "nucleotide incorporation", "value": "<100 µM"}
{"structure": "Nc1cc2c(c(N3CCOCC3)c1)CCN(c1nn3c(C4CC4)nnc3c3ccccc13)C2", "strain or isolate": "IIIB", "method": "RT activity / fluorescence", "value": "48.1 µM"}
{"structure": "CC(C)(C#Cc1ccc(NC(=O)CSc2nnnn2-c2cc(C(F)(F)F)cc(C3CC3)c2Cl)c(Cl)c1)OCCN1CCC(F)(F)C1", "strain or isolate": "WT", "method": "PicoGreen / fluorescence", "value": "<1 µM"}
{"structure": "Nc1ccc2c(c1)CN(c1nn3c(C4CC4)nnc3c3ccccc13)CC2", "strain or isolate": "IIIB", "method": "RT activity / fluorescence", "value": "0.19 µM"}
{"structure": "CC(C)(C#Cc1ccc(NC(=O)CSc2nnnn2-c2ccc(C(C)(C)C)cc2Cl)c(Cl)c1)OCC(=O)Nc1ccc(/C=C/C(=O)O)cc1", "strain or isolate": "WT", "method": "PicoGreen / fluorescence", "value": "<1 µM"}
{"structure": "CCN1c2ncc(CCOc3ccc(NC(=O)c4ccc(C(=O)O)cc4)cc3C)cc2C(=O)N(C)c2cccnc21", "strain or isolate": "IIIB", "mutations": "RT-K103N Y181C", "method": "nucleotide incorporation / radiometric", "value": "<0.05 µM"}
{"structure": "O=C(CSc1nnnn1-c1ccc(C2CC2)cc1Cl)Nc1ccc(C#CCCN2CCC(O)CC2)cc1Cl", "strain or isolate": "WT", "method": "PicoGreen / fluorescence", "value": "<1 µM"}
{"structure": "Fc1ccc2c(c1)CN(c1nn3c(C4CC4)nnc3c3ccccc13)CC2", "strain or isolate": "98US_MSC5016", "method": "RT activity / fluorescence", "value": "0.64 µM"}
{"structure": "CCN1c2ncc(CCOc3ccc(-c4ccc(CC(=O)O)c(C)c4)cc3C)cc2C(=O)N(C)c2cccnc21", "strain or isolate": "IIIB", "mutations": "RT-K103N Y181C", "method": "nucleotide incorporation / radiometric", "value": "<0.05 µM"}
{"structure": "CC(C)(C)c1ccc(-n2nnnc2SCC(=O)Nc2ccc(OCC(=O)NCCN3CCOCC3)cc2Cl)c(Cl)c1", "strain or isolate": "WT", "method": "PicoGreen / fluorescence", "value": "<1 µM"}
{"structure": "Cc1nnc2c3ccccc3c(N3CCc4cccnc4C3)nn12", "strain or isolate": "KER2008", "method": "RT activity / fluorescence", "value": "1.46 µM"}
{"structure": "CCc1cc(CCc2nc3ccccc3o2)c(=O)[nH]c1C", "mutations": "RT-K103N Y181C", "method": "nucleotide incorporation", "value": "22.3 µM"}

2 of the rows above, restated:

structure,strain or isolate,mutations,method,value
Nc1ccc2c(c1)CN(c1nn3c(C4CC4)nnc3c3ccccc13)CC2,IIIB,,RT activity / fluorescence,0.19 µM
CCN1c2ncc(CCOc3ccc(NC(=O)c4ccc(C(=O)O)cc4)cc3C)cc2C(=O)N(C)c2cccnc21,IIIB,RT-K103N Y181C,nucleotide incorporation / radiometric,<0.05 µM

ICn: concentration for n% inhibition. Conditions beyond the fields shown may differ between rows.